Compound potency records, mixed from different reports. Data source: NIAID ChemDB in PubChem.

All rows: growth or infection tests; agent: HIV-1

Conditions beyond the fields shown may differ between rows. Two numbers with a dash give a range or band. An empty or dashed field is not shown. ECn: concentration that inhibits the pathogen or its effect by n%.

smiles	strain	cell line	changes	read by	endpoint	result
CC(C)[C@H](NC(=O)OCc1ccccn1)C(=O)N[C@@H](Cc1ccccc1)[C@@H](O)C[C@H](Cc1ccccc1)NC(=O)OCc1cccnc1	NL4-3	MT-4	PR-M46I L63P V82T	p24	EC95	3 µM
Clc1cc(CN2CCCNCCNCCCNCC2)cc(Cl)n1	R5 clinical isolate #14	PBMC		p24	EC50	2.8 µM
COc1cnc(-c2cnc(N)cn2)c2[nH]cc(C(=O)C(=O)N3CCC(=C(C#N)c4ccccc4)CC3)c12		HeLa		luciferase	EC50	<1 µM
Cc1ncc(-c2ccc(O[C@@H](C)C3CC3)nc2)c(N2CCC(C)(C)CC2)c1[C@H](OC(C)(C)C)C(=O)O	NL4-3	MT-2		luminescence	EC50	0.0056 µM
Cc1cc(S(N)(=O)=O)ccc1NC(=O)COc1ccc(Cl)cc1C(=O)c1cc(F)cc(C(F)(F)F)c1	IIIB	HELA MAGI	RT-K103N V108I	luciferase	EC50	0.0036 µM
Cc1cc(S(N)(=O)=O)ccc1NC(=O)COc1ccc(Cl)cc1C(=O)c1cc(F)cc(C(F)(F)F)c1	Nevirapine-resistant (RT Y181C)	MT-4	RT-Y181C	cytopathic effect / propidium iodide	EC50	<0.01 µM
CCCC(C(=O)O)c1c(-c2ccc(Cl)cc2)c2cc(Br)ccc2[nH]c1=O		C8166		luciferase / reporter gene	EC50	<20 µM
CC(C)CN(C[C@@H](O)[C@H](Cc1ccccc1)NC(=O)O[C@H]1CCOC1)S(=O)(=O)c1ccc(N)cc1	T13436	MT-4	V32I L76V	reporter gene	EC50	2037 nM
CCN1c2ncc(CCOc3ccc(/C=C(\C)C(=O)O)c4ccccc34)cc2C(=O)N(C)c2cccnc21	WT	C8166		p24	EC50	<0.1 µM
CCCCCOC(C(=O)O)c1c(C)nc2ccc(Br)cc2c1-c1ccc(Cl)cc1		C8166		luciferase / reporter gene	EC50	<20 µM
CC(=O)c1c(C)nc(-c2ccccc2)nc1NC(=O)c1ccccc1	AE-CMU06	HeLa		GFP / fluorescence	EC50	0.1 µM
C=Cc1ccc(-c2c(C(OC(C)C)C(=O)O)c(C)nc3ccc(Cl)cc23)cc1		C8166		luciferase / reporter gene	EC50	<20 µM
CC(C)CN(C[C@H](O)C[C@H](Cc1ccccc1)CN1CSCC1C(=O)NC(C)(C)C)S(=O)(=O)c1ccccc1	IIIB	CEM		p24	EC90	1 µM
COc1cnc(-n2cc(C)nn2)c2[nH]cc(C(=O)C(=O)N3CCC(=C(c4ccccc4)c4cc(C)[nH]n4)CC3)c12		HeLa		luciferase	EC50	<1 µM
Cc1nc2ccccc2c(-c2cc(F)c3c(c2C)CCCO3)c1[C@H](OC(C)(C)C)C(=O)O	NL4-3	MT-4	G140S/Q148H	luminescence	EC50	0.025 µM
CC(C)=CCOc1cc(NC(=S)c2ccsc2C)ccc1Cl	UC781-R (RT-Y181C)	CEM + CEM-SS	RT-Y181C	cytopathic effect / XTT	EC50	0.3 µM
COCc1nc(Nc2ccc(C#N)cc2)nc(Nc2c(C)cc(/C=C/C#N)cc2C)c1C(=O)NCCNC(C)=O	K103N + Y181C	MT4 CMV-EGFP			EC50	0.0263 µM
Cc1cc(S(N)(=O)=O)ccc1NC(=O)COc1ccc(Cl)cc1C(=O)c1cccc(C#N)c1	HXB2	HeLa + HELA CD4+	RT-L100I	β-galactosidase	EC50	<0.01 µM
Cc1cc(C)cc(Cc2c(I)c(=O)[nH]c(=O)n2COCc2ccccc2)c1	SF33	TZM-bl		p24 / ELISA	EC50	0.002 µM
CCc1ccc(-c2c(C(OC3CCC3)C(=O)O)c(C)nc3ccc(Cl)cc23)cc1		C8166		luciferase / reporter gene	EC50	<20 µM
Cc1cc2cn[nH]c2cc1NC(=O)COc1ccc(Cl)cc1C(=O)c1cccc(C#N)c1	HXB2	HeLa + HELA CD4+	RT-V106I	β-galactosidase	EC50	<0.01 µM
CC1CC(C)CN(S(=O)(=O)c2ccccc2[N+](=O)[O-])C1	1617-1	HeLa		GFP / fluorescence	EC50	1 µM
CC(C)=CCOc1cc(NC(=S)c2ccoc2C)ccc1Cl	4xAZT	CEM + CEM-SS		cytopathic effect / XTT	EC50	0.006 µM
COCc1nc(Nc2ccc(C#N)cc2)nc(Nc2c(C)cc(/C=C/C#N)cc2C)c1C(=O)NCCC#N	K103N+Y101C	MT4 CMV-EGFP			EC50	0.0145 µM
CCN1c2ncc(CCOc3ccc(C(=O)O)c4ccccc34)cc2C(=O)N(C)c2ccc(F)nc21	WT	C8166		p24	EC50	<0.1 µM
COCc1nc(Nc2ccc(C#N)cc2)nc(Nc2c(C)cc(/C=C/C#N)cc2C)c1C(=O)NCCc1cccs1	MDR	MT4 CMV-EGFP			EC50	1.62 µM
Cc1ncc(-c2ccc(OCC3=CCCC3)cn2)c(N2CCC(C)(C)CC2)c1[C@H](OC(C)(C)C)C(=O)O	NL4-3	MT-2		luminescence	EC50	0.0028 µM
COc1ccc(-c2c([C@H](OC(C)C)C(=O)O)c(C)nc3ccc(Cl)cc23)cc1		C8166		luciferase / reporter gene	EC50	<20 µM
Cc1cc(N2CCS(=O)CC2)ccc1NC(=O)COc1ccc(Cl)cc1C(=O)c1cccs1	HXB2 (RT-K103N Y181C) Recombinant	HeLa + HELA CD4+	RT-K103N Y181C	β-galactosidase	EC50	1–3 µM
Cc1ncc(-c2ccc(OCCOc3c(F)cccc3Cl)nc2)c(N2CCC(C)(C)CC2)c1[C@H](OC(C)(C)C)C(=O)O	NL4-3	MT-2		luminescence	EC50	0.0028 µM
COc1cnc(-c2ccc(C(=O)N3CCCCC3)cc2)c2[nH]cc(C(=O)C(=O)N3CCC(=C(C#N)c4ccccc4)CC3)c12		HeLa		luciferase	EC50	<1 µM
Cc1ncc(-c2cnc(OCCC3CCCCC3)c(F)c2)c(N2CCC(C)(C)CC2)c1[C@H](OC(C)(C)C)C(=O)O	NL4-3	MT-2		luminescence	EC50	0.0033 µM
CC(C)CN(CCC(O)CN1CSC[C@H]1C(=O)NC(C)(C)C)S(=O)(=O)c1ccccc1	IIIB	CEM		p24	EC50	<1 µM
CCN1c2ncc(CCOc3ccc(CC(C)C(=O)O)c4ccccc34)cc2C(=O)N(C)c2ccc(Cl)nc21		C8166	RT-K103N Y181C	p24	EC50	<0.1 µM
Cc1cc(S(N)(=O)=O)ccc1NC(=O)COc1ccc(Cl)cc1C(=O)c1cc(Cl)cc(C#N)c1	WTRVA	HeLa + HELA CD4+		β-galactosidase	EC50	<0.01 µM
COc1ccc(S(=O)(=O)N(CC2CCCC2)C[C@@H](O)CN(CCc2ccccc2)C(=O)OC(C)(C)C)cc1	IIIB	CEM		p24	EC90	1 µM
CCN1c2ncc(CCOc3ccc(/C=C(\C)C(=O)O)c4ccccc34)cc2C(=O)N(C)c2ccc(Cl)nc21	WT	C8166		p24	EC50	<0.1 µM
COCc1nc(Nc2ccc(C#N)cc2)nc(Nc2c(C)cc(/C=C/C#N)cc2C)c1C(=O)NCCc1ccc(S(N)(=O)=O)cc1	K103N + Y181C	MT4 CMV-EGFP			EC50	0.0447 µM
Cc1cc(S(N)(=O)=O)ccc1NC(=O)COc1ccc(Cl)cc1C(=O)c1cccc(C#N)n1	HXB2 (RT-K103N G190A) Recombinant	HeLa + HELA CD4+	RT-K103N G190A	β-galactosidase	EC50	<0.01 µM
COCCNC(=O)c1c(COC)nc(Nc2ccc(C#N)cc2)nc1Nc1c(C)cc(/C=C(\C)C#N)cc1C	MDR	MT4 CMV-EGFP			EC50	0.0891 µM
COc1cc(-c2ccc(N=Nc3ccc4c(S(=O)(=O)O)cc(S(=O)(=O)O)c(N)c4c3O)c(OC)c2)ccc1N=Nc1ccc2c(S(=O)(=O)O)cc(S(=O)(=O)O)c(N)c2c1O	KELL	CEM + CEM-SS		RT activity	EC50	0.6 µM
CCc1cc(C#N)cc(C(=O)c2cc(Cl)ccc2OCC(=O)Nc2ccc(S(N)(=O)=O)cc2C)c1	HXB2	HeLa + HELA CD4+	RT-P236L	β-galactosidase	EC50	<0.01 µM
COc1cnc(-c2cnccn2)c2[nH]cc(C(=O)C(=O)N3CCC(=C(c4ccccc4)c4cccc(F)c4)CC3)c12		HeLa		luciferase	EC50	<1 µM
CCCC1CC(Oc2ccc(-c3cnc(C)c([C@H](OC(C)(C)C)C(=O)O)c3N3CCC(C)(C)CC3)nc2)C1	NL4-3	MT-2		luminescence	EC50	0.005 µM
COCCNC(=O)c1c(COC)nc(Nc2ccc(C#N)cc2)nc1Oc1c(C)cc(/C=C/C#N)cc1C	MDR	MT4 CMV-EGFP			EC50	0.661 µM
COc1ccc(S(=O)(=O)N(CC(C)C)C[C@@H](O)CCN(CC2CCCC2)S(=O)(=O)c2ccncc2)cc1	IIIB	CEM		p24	EC90	1 µM
CC1(C)CC=C(c2cn(-c3nccc(C(=O)NC4CCC(N5CC6CCC(C5)O6)CC4)n3)c3ccc(F)c([C@H](OC(C)(C)C)C(=O)O)c23)CC1	NL4-3	MT-4	A128T	luminescence	EC50	0.019 µM
COc1ncc(OC)c2c(C(=O)C(=O)N3CCC(=C(C#Cc4ccccc4)c4ccccc4)CC3)c[nH]c12		HeLa		luciferase	EC50	<1 µM
CCCC(C(=O)O)c1c(-c2ccc(Cl)cc2)c2cc(Cl)ccc2n(CCN)c1=O		C8166		luciferase / reporter gene	EC50	<20 µM
Cc1cc(C#N)cc(C(=O)c2cc(Cl)ccc2OCC(=O)Nc2ccc(S(N)(=O)=O)nc2C)c1	HXB2	HeLa + HELA CD4+	RT-P236L	β-galactosidase	EC50	<0.01 µM
COCc1nc(Nc2ccc(C#N)cc2)nc(Nc2c(C)cc(/C=C(\C)C#N)cc2C)c1C(=O)NCc1ccncc1	IIIB	MT4 CMV-EGFP			EC50	0.00389 µM
O=C(O)c1cc(-n2cccc2)ccc1Cl	CMU02 X4 CLADE EA	PBMC/5.25M7		luciferase / cell fusion	EC90	129 µM
COc1ncc(OC)c2c(C(=O)C(=O)N3CCC(=C(C#N)c4ccccn4)CC3)c[nH]c12		HeLa		luciferase	EC50	<1 µM
CCCc1cc(=O)oc2c3c(c4c(c12)OC(C)(C)CC4)O[C@H](C)[C@@H](C)C3=O			RT-Y188H	cytopathic effect / XTT	EC50	>100 µM
Cc1cc2[nH]cnc2cc1NC(=O)COc1ccc(Cl)cc1C(=O)c1cc(F)cc(C(F)(F)F)c1	HXB2	HeLa + HELA CD4+	RT-P225H	β-galactosidase	EC50	<0.01 µM
COc1ccc(S(=O)(=O)N(CC(C)C)C[C@@H](O)CCN(CC2CCCC2)S(=O)(=O)CC2CCOC2)cc1	IIIB	CEM		p24	EC90	1 µM
COCCCOc1ccc(-c2cnc(C)c([C@H](OC(C)(C)C)C(=O)O)c2N2CCC(C)(C)CC2)cc1	NL4-3	MT-2		luminescence	EC50	0.0008 µM
COC[C@@H](c1ccc(C(F)(F)F)cc1)N1CCN(C2(C)CCN(C(=O)c3c(C)ncnc3C)CC2)C[C@@H]1C	S	PBMC	V535M		EC50	0.00069 µM
CC(C)CN(C[C@H](O)C[C@@H](CNC(C)(C)C)Cc1ccccc1)S(=O)(=O)c1ccccc1	IIIB	CEM		p24	EC90	1 µM
COc1cnc(-n2cnc(C)n2)c2[nH]cc(C(=O)C(=O)N3CCC(=C(c4ccccc4)c4nnc(C5CCC5)o4)CC3)c12		HeLa		luciferase	EC50	<1 µM
COC(C(=O)O)c1c(C)nc2ccc(Br)cc2c1-c1ccc(Cl)cc1		C8166		luciferase / reporter gene	EC50	<20 µM

Repeating the final 7 entries:

smiles	strain	cell line	changes	read by	endpoint	result
Cc1cc2[nH]cnc2cc1NC(=O)COc1ccc(Cl)cc1C(=O)c1cc(F)cc(C(F)(F)F)c1	HXB2	HeLa + HELA CD4+	RT-P225H	β-galactosidase	EC50	<0.01 µM
COc1ccc(S(=O)(=O)N(CC(C)C)C[C@@H](O)CCN(CC2CCCC2)S(=O)(=O)CC2CCOC2)cc1	IIIB	CEM		p24	EC90	1 µM
COCCCOc1ccc(-c2cnc(C)c([C@H](OC(C)(C)C)C(=O)O)c2N2CCC(C)(C)CC2)cc1	NL4-3	MT-2		luminescence	EC50	0.0008 µM
COC[C@@H](c1ccc(C(F)(F)F)cc1)N1CCN(C2(C)CCN(C(=O)c3c(C)ncnc3C)CC2)C[C@@H]1C	S	PBMC	V535M		EC50	0.00069 µM
CC(C)CN(C[C@H](O)C[C@@H](CNC(C)(C)C)Cc1ccccc1)S(=O)(=O)c1ccccc1	IIIB	CEM		p24	EC90	1 µM
COc1cnc(-n2cnc(C)n2)c2[nH]cc(C(=O)C(=O)N3CCC(=C(c4ccccc4)c4nnc(C5CCC5)o4)CC3)c12		HeLa		luciferase	EC50	<1 µM
COC(C(=O)O)c1c(C)nc2ccc(Br)cc2c1-c1ccc(Cl)cc1		C8166		luciferase / reporter gene	EC50	<20 µM